A mixed list of measured activities; the numbers were collected in NIAID ChemDB.

Common to all: tests in culture; agent: HIV-1; read-out: EC50

ECn is the concentration giving n% inhibition of infection, replication or growth.

smiles,changes,read by,cell line,strain,conditions,value
CC(O)(C(=O)NN=C1CCCC1)c1ccccc1,,cell fusion / luminescence,HeLa,,,>112 µM
C/C(=N\NC(=O)c1ccccc1)c1cn(S(=O)(=O)c2ccc(Cl)cc2)c2ccc(C#N)cc12,,syncytia / visual reading,C8166,IIIB,,11.72 µg/mL
N#C[C@]1(CO)O[C@@H](n2cnc3c(=O)[nH]c(N)nc32)C[C@@H]1O,,absorbance,MT-4,NL4-3,,0.0004 µM
CN1C(c2ccc(Cl)cc2)c2ccccc2S1(=O)=O,,p24 / RT activity,,,,19.6 µM
Nc1nc2c(ncn2[C@H]2C[C@H](O)[C@](CO)(C(F)(F)F)O2)c(=O)[nH]1,,absorbance,MT-4,NL4-3,,0.027 µM
CCCCC/C(=N\NC(=O)c1ccccc1)c1cn(S(=O)(=O)c2ccc(C)cc2)c2ccccc12,,syncytia / visual reading,C8166,IIIB,,52.23 µg/mL
CC(C)=CCc1cc(C(O)C2NC(=O)CNC(=O)C(Cc3c[nH]c4ccccc34)NC(=O)C3CCCN3C(=O)CNC(=O)C(C(C)C)CC(=O)CNC2=O)ccc1O,,visual reading / absorbance,TZM-bl,HXB2,pseudotyped,>100 µg/mL
CC(=O)NN=C1CCC(=NNC(C)=O)CC1,,cell fusion / luminescence,HeLa,,,>112 µM
Cc1c(OCC2CCC2)c2cc(F)ccc2[nH]c1=O,RT-K103N Y181C,β-galactosidase,HeLa + HeLa-MAGI,NNRTI-resistant (RT K103N Y181C),,>2 µM
Cc1cccnc1CN(CCCCN)Cc1nccc2cc(Br)ccc12,,entry / luminescence,U87.CD4.CXCR4,,,0.69 µM
CC(C)C1=C2[C@H]3CC[C@@H]4[C@@]5(C)CC[C@H](OC(=O)[C@H]6C[C@@H](C(=O)O)C6(C)C)C(C)(C)[C@@H]5CC[C@@]4(C)[C@]3(C)CC[C@@]2(CCNC[C@@H]2CCCNC2)CC1=O,,p24 / ELISA,MT-2,92HT599,,<1 µM
COc1ccc(S(=O)(=O)n2cc(/C=N/NC(=O)c3ccccc3)c3ccc(C)cc32)cc1,,syncytia / visual reading,C8166,IIIB,,3.66 µg/mL
O=C(Cc1ccccc1)N/N=C/c1ccccc1F,,cell fusion / luminescence,HeLa,,,>112 µM
CCN(CC)CCN1C(=O)c2cc(OC)c(OC)c3c2c1cc1ccccc13,,luciferase / entry,TZM-bl,NL4-3,,3.07 µM
C[C@H]1CO[C@@H]2Cn3cc(C(=O)NCc4ccc(F)cc4F)c(=O)c(O)c3C(=O)N12,T97A E138K G140S Q148H,GFP,CEM-GXR,NL4-3,,0.177 µM
CCOC(=O)c1c(C(C)C)c(C#N)c(=N)n2ccccc12,,trypan blue,MOLT-4/HIV-1(IIIB) + MOLT-4,IIIB,,>70.7 µM
Cc1ccc(C(C)S(=O)(=O)c2c(C)ccc[n+]2[O-])c(C)c1,RT-K103N,cytopathic effect,CEM,,,50 µg/mL
C[C@@H]1O[C@@H](Oc2c(-c3ccc(O)cc3)oc3cc(O)cc(O)c3c2=O)[C@H](O[C@@H]2O[C@H](COC(=O)/C=C/c3ccc(O)cc3)[C@@H](O)[C@H](O)[C@H]2O)[C@H](O)[C@H]1O,,visual reading / absorbance,TZM-bl,HXB2,pseudotyped,10.1 µM
CC(C)[C@H](NC(=O)[C@H](NCc1ccccc1)[C@H](O)[C@H](Cc1ccccc1)NC(=O)[C@@H](NC(=O)OCc1ccccc1)C(C)(C)C)C(=O)NCc1ccccc1,,MTT / p24,U-937,IIIB,,0.0766 µM
Cc1cn([C@@H]2O[C@H](CO[Si](C)(C)C(C)(C)C)[C@@H](O)[C@H]2O[Si](C)(C)C(C)(C)C)c(=O)n(CCCCC(=O)O)c1=O,,cytopathic effect / trypan blue,MT-4,IIIB,,≥10 µM
O=C(N/N=C/c1cccs1)c1ccccc1,,cell fusion / luminescence,HeLa,,,>112 µM
COC(=O)CCCCn1c(=O)c(C)cn([C@@H]2O[C@H](CO[Si](C)(C)C(C)(C)C)[C@@H](O)[C@H]2O[Si](C)(C)C(C)(C)C)c1=O,,cytopathic effect / trypan blue,MT-4,IIIB,,>10 µM
C=C1[C@H](CO)[C@@H](O)C[C@@H]1n1cnc2c(=O)[nH]c(N)nc21,,absorbance,MT-4,NL4-3,,1.02 µM
CN1C(c2ccc(N)cc2)c2ccccc2S1(=O)=O,,p24 / RT activity,,,,65 µM
CC(C)C1=C2[C@H]3CC[C@@H]4[C@@]5(C)CC[C@H](OC(=O)[C@H]6C[C@@H](C(=O)O)C6(C)C)C(C)(C)[C@@H]5CC[C@@]4(C)[C@]3(C)CC[C@@]2([C@@H](O)CNCC(C)(C)NC(=O)c2ccc(C(F)(F)F)cc2)CC1=O,,p24 / ELISA,MT-2,92HT599,,<1 µM
Cc1cc(C#N)cc(C(=O)c2ccccc2OCC(=O)Nc2ccc(S(N)(=O)=O)cc2C)c1,RT-L100I K103N,β-galactosidase,HeLa MAGI + HeLa,,,<0.005 µM
CC(C)[C@H](NC(=O)CCc1nc2ccccc2[nH]1)C(=O)N[C@@H](Cc1ccccc1)[C@@H](O)[C@@H](NCc1ccccc1)C(=O)N[C@H](C(=O)NCc1ccccc1)C(C)C,,MTT / p24,HuT-78 + HUT 78,IIIB,,0.092 µM
NC(=O)CCNC(=O)c1ccccc1SCc1ccc(OP(=O)(O)O)cc1,,XTT,CEM,RF,,3.28 µM
C/C(=N\NC(=O)c1ccccc1)c1cn(S(=O)(=O)c2ccc(C)cc2)c2ccc([N+](=O)[O-])cc12,,syncytia / visual reading,C8166,IIIB,,2.55 µg/mL
Cc1ccc(C(C)C)c2oc(=O)c(C(=O)/C=C/c3cccc(Oc4ccccc4)c3)c(O)c12,,virus yield,MT-4,IIIB,,>3.49 µg/mL
CC(C)C1=C2[C@H]3CC[C@@H]4[C@@]5(C)CC[C@H](OC(=O)[C@H]6C[C@@H](C(=O)O)C6(C)C)C(C)(C)[C@@H]5CC[C@@]4(C)[C@]3(C)CC[C@@]2([C@@H](O)CNCC(C)(C)NC(=O)c2ccc3nc[nH]c3c2)CC1=O,,p24 / ELISA,MT-2,92HT599,,<1 µM
Cc1cccnc1CN(CCCCN)Cc1nccc2ccccc12,,flow cytometry,Jurkat cells,,,0.026 µM
CC(C)[C@H](NC(=O)OCc1ccccc1)C(=O)N[C@@H](Cc1ccccc1)[C@@H](O)[C@@H](NCc1ccc(Br)cc1)C(=O)N[C@H](C(=O)NCc1nc2ccccc2[nH]1)C(C)C,,MTT / p24,HuT-78 + HUT 78,IIIB,,0.025 µM
CCCCC(CC)COC(=O)c1cc(NC(=S)OC(C)C)ccc1Cl,RT-L100I,syncytia,CEM,,,22.02 µM
C/C(=N\NC(=O)c1ccccc1)c1cn(S(=O)(=O)c2ccccc2)c2ccc(C#N)cc12,,syncytia / visual reading,C8166,IIIB,,0.67 µg/mL
O=C(CCC(CCC(=O)NCCc1c[nH]c2ccccc12)(CCC(=O)NCCc1c[nH]c2ccccc12)NC(=O)CCOCC(COCCC(=O)NC(CCC(=O)NCCc1c[nH]c2ccccc12)(CCC(=O)NCCc1c[nH]c2ccccc12)CCC(=O)NCCc1c[nH]c2ccccc12)(COCCC(=O)NC(CCC(=O)NCCc1c[nH]c2ccccc12)(CCC(=O)NCCc1c[nH]c2ccccc12)CCC(=O)NCCc1c[nH]c2ccccc12)COCCC(=O)NC(CCC(=O)NCCc1c[nH]c2ccccc12)(CCC(=O)NCCc1c[nH]c2ccccc12)CCC(=O)NCCc1c[nH]c2ccccc12)NCCc1c[nH]c2ccccc12,,MTS,MT-4,NL4-3,,45 µM
N#Cc1ccc2c(c1)c(/C=N/NC(=O)c1ccccc1)cn2S(=O)(=O)c1cccc([N+](=O)[O-])c1,,syncytia / visual reading,C8166,IIIB,,3.13 µg/mL
CC(C)[C@H](NC(=O)OCc1ccccc1)C(=O)N[C@@H](Cc1ccccc1)[C@@H](O)[C@@H](NCc1ccccc1)C(=O)N[C@H](C(=O)NCc1ccccc1)C(C)C,,MTT / p24,U-937,IIIB,,0.3 µM
CCCc1c(OC2CCCCC2)c2cc(Cl)ccc2[nH]c1=O,RT-K103N Y181C,β-galactosidase,HeLa + HeLa-MAGI,NNRTI-resistant (RT K103N Y181C),,>2 µM
Cc1cc2oc(=O)c(C(=O)/C=C/c3ccccc3)c(O)c2cc1Cl,,virus yield,MT-4,IIIB,,>3.64 µg/mL
CC1(C)CC=C(c2cn(-c3nccc(C(=O)NC4CCC(N5CC6CCC(C5)O6)CC4)n3)c3ccc(F)c([C@H](OC(C)(C)C)C(=O)O)c23)CC1,Q148K,luminescence,MT-4,NL4-3,,0.004 µM
CN1C(c2ccc(F)cc2)c2ccccc2S1(=O)=O,,p24 / RT activity,,,,37.5 µM
Nc1ncnc2c1ncn2[C@@H]1O[C@H](CO)[C@@H](O)[C@H]1CO,,ATP,MT-4,,,>53 µM
Cc1cn([C@@H]2O[C@H](COC(=O)C(C)(C)C)[C@@H](O)[C@H]2OC(=O)C(C)(C)C)c(=O)n(CC(=O)O)c1=O,,cytopathic effect / trypan blue,MT-4,IIIB,,92 µM
Cc1nnc(C(=O)NC(C)(C)c2nc(C(=O)NCc3ccc(F)cc3)c(O)c(=O)n2C)o1,,GFP,CEM-GXR,NL4-3,,0.005 µM
CN1C(C)(c2ccccc2)c2ccccc2S1(=O)=O,,p24 / RT activity,,,,4.52 µM
COC(=O)CCNP(=O)(OC[C@@H]1C=C[C@H](n2cc(C)c(=O)[nH]c2=O)O1)Oc1ccccc1,,cytopathic effect / microscopy,CEM + CEM/0,,,6 µM
C=C[C@]1(CO)O[C@@H](n2cnc3c(N)nc(N)nc32)C[C@@H]1O,,absorbance,MT-4,NL4-3,,0.004 µM
Cc1cn([C@@H]2O[C@H](CO[Si](C)(C)C(C)(C)C)[C@@H](O)[C@H]2O[Si](C)(C)C(C)(C)C)c(=O)n(Cc2nn[nH]n2)c1=O,,cytopathic effect / trypan blue,MT-4,IIIB,,>2 µM
CC(C)C1=C2[C@H]3CC[C@@H]4[C@@]5(C)CC[C@H](OC(=O)[C@H]6C[C@@H](C(=O)O)C6(C)C)C(C)(C)[C@@H]5CC[C@@]4(C)[C@]3(C)CC[C@@]2(CCNCc2ccc(Cl)c(Cl)c2)CC1=O,,p24 / ELISA,MT-2,92HT599,,<1 µM
Cc1ccsc1/C=N/NC(=O)CN1CCSCC1,,cell fusion / luminescence,HeLa,,,>112 µM
CC(C)OC(=S)Nc1ccc(Cl)c(C(=O)OCC(F)(F)F)c1,RT-L100I,syncytia,CEM,,,21.08 µM
CN1C(c2cccc(Cl)c2)c2ccccc2S1(=O)=O,,p24 / RT activity,,,,0.38 µM
CC[C@@H](O)[C@]1(C)C[C@H](C)[C@@](O)([C@H]2C[C@H](C)[C@H]([C@]3(C)CC[C@H]([C@@H]4CC[C@@]5(O[C@H]([C@@H](C)[C@@H](OC)[C@H](C)C(=O)O)[C@H](C)[C@@H](OC)[C@H]5C)O4)O3)O2)O1,,MTT / ELISA,,,,5 µg/mL
CCCCCCCCCCCCCCCC(=O)OCCC[N+](C)(C)CCOCn1cc(C)c(=O)[nH]c1=O,,plaque count / syncytia,CEM + CEM-SS,IIIB,,6.8 µM
CC(C)C1=C2[C@H]3CC[C@@H]4[C@@]5(C)CC[C@H](OC(=O)[C@H]6C[C@@H](C(=O)O)C6(C)C)C(C)(C)[C@@H]5CC[C@@]4(C)[C@]3(C)CC[C@@]2([C@@H](O)CNCC(C)(C)NC(=O)c2ncccn2)CC1=O,,p24 / ELISA,MT-2,92HT599,,<1 µM
Cc1cc(C)cc(S(=O)(=O)c2c(C(N)=O)[nH]c3c(Cl)cc(Cl)cc23)c1,,cytopathic effect / MTT / p24,MT-4,IIIB,,1.6 µM
COc1ccc(/C=C/C(=O)c2c(O)c3c(C)ccc(C(C)C)c3oc2=O)cc1,,virus yield,MT-4,IIIB,,>125 µg/mL
Cc1ccc2c(c1)C(c1ccccc1)N(C)S2(=O)=O,,p24 / RT activity,,,,31 µM
Cc1cc2oc(=O)c(C(=O)/C=C/c3cccc(Oc4ccccc4)c3)c(O)c2cc1Cl,,virus yield,MT-4,IIIB,,>51.6 µg/mL
COc1ccc(/C=N/NC(=O)Nc2nonc2N)cc1,,cell fusion / luminescence,HeLa,,,>112 µM
Cc1nc(C)c(C(=O)NC(C)(C)C(=O)NC[C@H](O)[C@@]23CC[C@]4(C)[C@H](CC[C@@H]5[C@@]6(C)CC[C@H](OC(=O)[C@H]7C[C@@H](C(=O)O)C7(C)C)C(C)(C)[C@@H]6CC[C@]54C)C2=C(C(C)C)C(=O)C3)s1,,p24 / ELISA,MT-2,92HT599,,<1 µM
COc1ccc(/C=C/C(=O)O[C@H]2[C@H](OC3OC=C(C(=O)O)[C@H]4CC[C@](C)(O)[C@@H]34)O[C@H](CO)[C@@H](O)[C@@H]2O)cc1,,p24 / antigen / PCR,PBMC,SA,,0.1 µg/mL

A second listing of 7 rows from above:

{"smiles": "CC(C)[C@H](NC(=O)[C@H](NCc1ccccc1)[C@H](O)[C@H](Cc1ccccc1)NC(=O)[C@@H](NC(=O)OCc1ccccc1)C(C)(C)C)C(=O)NCc1ccccc1", "read by": "MTT / p24", "cell line": "U-937", "strain": "IIIB", "value": "0.0766 µM"}
{"smiles": "CC(C)C1=C2[C@H]3CC[C@@H]4[C@@]5(C)CC[C@H](OC(=O)[C@H]6C[C@@H](C(=O)O)C6(C)C)C(C)(C)[C@@H]5CC[C@@]4(C)[C@]3(C)CC[C@@]2([C@@H](O)CNCC(C)(C)NC(=O)c2ccc3nc[nH]c3c2)CC1=O", "read by": "p24 / ELISA", "cell line": "MT-2", "strain": "92HT599", "value": "<1 µM"}
{"smiles": "CC(C)[C@H](NC(=O)OCc1ccccc1)C(=O)N[C@@H](Cc1ccccc1)[C@@H](O)[C@@H](NCc1ccccc1)C(=O)N[C@H](C(=O)NCc1ccccc1)C(C)C", "read by": "MTT / p24", "cell line": "U-937", "strain": "IIIB", "value": "0.3 µM"}
{"smiles": "COc1ccc(/C=C/C(=O)c2c(O)c3c(C)ccc(C(C)C)c3oc2=O)cc1", "read by": "virus yield", "cell line": "MT-4", "strain": "IIIB", "value": ">125 µg/mL"}
{"smiles": "C/C(=N\\NC(=O)c1ccccc1)c1cn(S(=O)(=O)c2ccc(Cl)cc2)c2ccc(C#N)cc12", "read by": "syncytia / visual reading", "cell line": "C8166", "strain": "IIIB", "value": "11.72 µg/mL"}
{"smiles": "COC(=O)CCNP(=O)(OC[C@@H]1C=C[C@H](n2cc(C)c(=O)[nH]c2=O)O1)Oc1ccccc1", "read by": "cytopathic effect / microscopy", "cell line": "CEM + CEM/0", "value": "6 µM"}
{"smiles": "COc1ccc(/C=C/C(=O)O[C@H]2[C@H](OC3OC=C(C(=O)O)[C@H]4CC[C@](C)(O)[C@@H]34)O[C@H](CO)[C@@H](O)[C@@H]2O)cc1", "read by": "p24 / antigen / PCR", "cell line": "PBMC", "strain": "SA", "value": "0.1 µg/mL"}

An empty or dashed field is not shown. Lines come from different laboratories, so protocols vary.